Results of unrelated studies side by side (data: NIAID ChemDB).

ICn is the concentration giving n% inhibition. ECn is the concentration giving n% inhibition of infection, replication or growth. MIC50, MIC90 and the like: level of inhibition, or share of isolates inhibited. Conditions beyond the fields shown may differ between rows. Blank or dashed fields: not listed here. Inhibition is in % at the dose shown (toxicity tests: loss of growth or viability).

C=CCc1ccc(OC)c(OC)c1 ; kind: culture ; species: Candida tropicalis ; strain or isolate: 3013 ; read by: turbidity ; read-out: MIC90 ; value: 340 µg/mL
CC(=O)N[C@H]1[C@H]([C@H](O)[C@H](O)CO)OC(C(=O)O)=C[C@@H]1N=C(N)N ; kind: culture ; species: Influenza B virus ; strain or isolate: B/LEE/40 ; cell line: MDCK ; read-out: EC50 ; value: 0.6 µM
Fc1ccc(N2CCCCC2)c(NC(=S)c2ccncc2)c1 ; kind: host protein ; target: Ret (V804M) ; read by: kinase activity ; read-out: inhibition ; tested at: 10 µM ; value: 6%
Oc1ccccc1N=Cc1cccc(O)c1O ; kind: culture ; species: Cryptococcus gattii ; strain or isolate: 196L/03 ; read-out: MIC99 ; value: 5.7 µg/mL
O=C(O)c1ccc(S(=O)(=O)[O-])cc1C(=O)O ; kind: culture ; species: Herpes simplex virus ; cell line: Human amnion AV3 cells ; read by: cytopathic effect ; read-out: inhibition ; tested at: 10 µg/mL ; value: 0%
Oc1ccccc1N=Cc1ccc(F)cc1 ; kind: culture ; species: Cryptococcus neoformans ; strain or isolate: 96806 ; read-out: MIC99 ; value: 5.7 µg/mL
CCOC(=O)c1ccc(OCCC2CCN(c3ccc(C)nn3)CC2)cc1 ; kind: culture ; species: Rhinovirus ; strain or isolate: 5986 (ICAM-1 receptor group 18) ; cell line: KB ; read by: neutral red ; read-out: EC50 ; value: 0.298 µM
CCOC(=O)c1cnc(NCCCCNc2ccnc3cc(Cl)ccc23)nc1C ; kind: culture ; species: Cryptococcus gattii ; strain or isolate: L 27/01 ; read-out: MIC99 ; value: 32 µg/mL
Nc1cc(S(=O)(=O)[O-])cc2cc(S(=O)(=O)[O-])ccc12 ; kind: culture ; species: Herpes simplex virus ; cell line: Human conjunctiva cells ; read by: cytopathic effect ; read-out: inhibition ; tested at: 50 µg/mL ; value: 0%
CC(C)(C)c1ccc(-c2cncc(N3CCN(c4cnccn4)CC3)n2)cc1 ; kind: target ; species: Cytomegalovirus ; target: UL97 kinase ; read-out: inhibition ; tested at: 10 µM ; value: >15%
Nc1c(S(=O)(=O)[O-])cc2cc(S(=O)(=O)[O-])ccc2c1O ; kind: culture ; species: Herpes simplex virus ; cell line: Human amnion AV3 cells ; read by: cytopathic effect ; read-out: inhibition ; tested at: 50 µg/mL ; value: 55%
Cc1cccc(N2CCN(c3cncc(-c4cc5ccccc5s4)n3)CC2)c1C ; kind: target ; species: Cytomegalovirus ; target: UL97 kinase ; read-out: IC50 ; value: <100 µM
Cc1cc(-c2ccc(N=Nc3c(N)c(S(=O)(=O)O)cc4cc(S(=O)(=O)O)ccc34)c(C)c2)ccc1N=Nc1c(N)ccc2cc(S(=O)(=O)O)ccc12 ; kind: culture ; species: Adenovirus ; strain or isolate: TYPE 3 ; cell line: Human embryonic lung cells ; read by: cytopathic effect ; read-out: inhibition ; tested at: 5 µg/mL ; value: 0%
CCOC(=O)c1c(C)nc(NCCCCNc2ccnc3cc(Cl)ccc23)nc1-c1ccccc1 ; kind: culture ; species: Cryptococcus gattii ; strain or isolate: L 27/01 ; read-out: MIC99 ; value: 32 µg/mL
Nc1ccc2cc([N+](=O)[O-])cc(S(=O)(=O)[O-])c2c1 ; kind: culture ; species: Herpes simplex virus ; cell line: Human conjunctiva cells ; read by: cytopathic effect ; read-out: inhibition ; tested at: 10 µg/mL ; value: 0%
OCc1cccc(-c2cncc(N3CCN(CCN4CCCC4)CC3)n2)c1 ; kind: target ; species: Cytomegalovirus ; target: UL97 kinase ; read-out: inhibition ; tested at: 10 µM ; value: >15%
O=C(Nc1cc(S(=O)(=O)[O-])cc2cc(S(=O)(=O)[O-])ccc12)c1ccccc1 ; kind: culture ; species: Herpes simplex virus ; cell line: Human conjunctiva cells ; read by: cytopathic effect ; read-out: inhibition ; tested at: 50 µg/mL ; value: 0%
COc1ccc(N2CCN(c3cncc(-c4cc(C)cc(C)c4)n3)CC2)cc1OC ; kind: target ; species: Cytomegalovirus ; target: UL97 kinase ; read-out: IC50 ; value: <100 µM

A second listing of 2 rows from above:

SMILES	kind	species	strain or isolate	cell line	target	read by	read-out	tested at	value
Nc1ccc2cc([N+](=O)[O-])cc(S(=O)(=O)[O-])c2c1	culture	Herpes simplex virus		Human conjunctiva cells		cytopathic effect	inhibition	10 µg/mL	0%
CCOC(=O)c1c(C)nc(NCCCCNc2ccnc3cc(Cl)ccc23)nc1-c1ccccc1	culture	Cryptococcus gattii	L 27/01				MIC99		32 µg/mL